Reference: patent publication US20050131041A1, “Azole derivatives as antifungal agents” (priority 2002, published 2005)

Test system: Histoplasma capsulatum

| Substance | MIC [µg/mL] |
| --- | --- |
| 1-[(1R,2R)-2-(2,4-Difluorophenyl)-2-hydroxy-1-methyl-3-(1H-1,2,4-triazol-1-yl)propyl]-3-[4-(1H-1-tetrazolyl)phenyl]-2-(1H,3H)-thioimidazolone | 0.03 |
| 1-[(1R,2R)-2-(2,4-Difluorophenyl)-2-hydroxy-1-methyl-3-(1H-1,2,4-triazol-1-yl)propyl]-3-[4-(2,2,3,3-tetrafluoropropoxy)phenyl]-2-(1H,3H)-thioimidazolone | 0.25 |
| 1-[(1R,2R)-2-(2,4-Difluorophenyl)-2-hydroxy-1-methyl-3-(1H-1,2,4-triazol-1-yl)propyl]-3-[4-(2H-2-tetrazolyl)phenyl]-2-(1H,3H)-thioimidazolone | 0.25 |
